This passage reports Efficiency (relative PrP^Sc binding efficiency, peptide 2 = 100%) results from patent US20060094071A1, “Method for enriching and tracking pathologic modified prions-proteins(prpsc)” (priority 2002, published 2006).

This experiment deals with pathologically-altered prion protein (PrP^Sc) from BSE-positive cattle (cattle) (UniProt P10279).

As to “Peptide 7 (Propionyl-DArg-DArg-DAla-DPhe-DPhe-DVal-amide)”, the Efficiency (relative PrP^Sc binding efficiency, peptide 2 = 100%) was found to be 76.5%.
